From US11767303B2, “Compounds and methods for inhibiting viral replication and methods of treating and preventing flaviviral infections” (priority 2020, dated 2023)

Tests used:
[1] = test system: DENV2; experiment: Viral titer (plaque) reduction assay, DENV2 in A549 cells; format: cell-based, Dengue virus serotype 2; settings: CC50/EC50
Method: Viral Titer Reduction Assay. A viral titer reduction assay was used to determine the compounds' effect on DENV2 and ZIKV strains, as described previously. […] Human A549 lung carcinoma cells and human primary neural progenitor cells were used, as described previously. […] 13:e1006411 (2017), which are hereby incorporated by reference in their entirety. All experiments were performed in triplicates.
A viral plaque reduction assay was performed next to evaluate the antiviral efficacy of these derivatives. Human lung carcinoma A549 cells were infected with DENV2 in the presence of a concentration series of derivatives or a dimethyl sulfoxide (DMSO) control, and viral titers were measured at 48 hrs post-infection, as described previously.

[2] = test system: ZIKV; experiment: Viral titer reduction assay, ZIKV in A549 cells; format: cell-based, Zika virus; settings: CC50/EC50
Method: Viral Titer Reduction Assay. A viral titer reduction assay was used to determine the compounds' effect on DENV2 and ZIKV strains, as described previously. […] Human A549 lung carcinoma cells and human primary neural progenitor cells were used, as described previously. […] All experiments were performed in triplicates.

SMILES	TI (DN2) [1]	TI (ZK) [2]
Cl.O=C(Nc1ccc([N+](=O)[O-])cc1Cl)c1cc(Cl)ccc1OC1CCNCC1 [HJC0125]	239	335
O=C(Nc1ccc2c(c1)S(=O)(=O)C=C2)c1cc(Cl)ccc1O [HJC0149]	268	219
NCCCOc1ccc(Cl)cc1C(=O)Nc1ccc([N+](=O)[O-])cc1Cl [HJC0308]	12.6	2.8
CN1CCN(CCOc2ccc(Cl)cc2C(=O)Nc2ccc([N+](=O)[O-])cc2Cl)CC1 [HJC0365]	27.6	29.5
CN1CCC(Oc2ccc(Cl)cc2C(=O)Nc2ccc([N+](=O)[O-])cc2Cl)CC1 [HJC0381]	76	23.3
CC[C@H](N)COc1ccc(Cl)cc1C(=O)Nc1ccc([N+](=O)[O-])cc1Cl [HJC0390]	70	>300
NCCCCOc1ccc(Cl)cc1C(=O)Nc1ccc([N+](=O)[O-])cc1Cl [HJC0431]	13	79
O=C(Nc1ccc([N+](=O)[O-])cc1Cl)c1cccc([N+](=O)[O-])c1O [JMX0207, N-(2-Chloro-4-nitrophenyl)-2-hydroxy-3-nitrobenzamide]	103	106
O=C(Nc1ccc([N+](=O)[O-])cc1Cl)c1cc(Cl)ccc1O [Niclosamide, reference compound]	8.7	10.0
